# Only a part of the results on these compounds is given; other tests are left out.
# Chains of the proteins cited; added tags and fusions are not shown. Residues count along the entry.
# UniProt P04757, 26-499 limits assumed: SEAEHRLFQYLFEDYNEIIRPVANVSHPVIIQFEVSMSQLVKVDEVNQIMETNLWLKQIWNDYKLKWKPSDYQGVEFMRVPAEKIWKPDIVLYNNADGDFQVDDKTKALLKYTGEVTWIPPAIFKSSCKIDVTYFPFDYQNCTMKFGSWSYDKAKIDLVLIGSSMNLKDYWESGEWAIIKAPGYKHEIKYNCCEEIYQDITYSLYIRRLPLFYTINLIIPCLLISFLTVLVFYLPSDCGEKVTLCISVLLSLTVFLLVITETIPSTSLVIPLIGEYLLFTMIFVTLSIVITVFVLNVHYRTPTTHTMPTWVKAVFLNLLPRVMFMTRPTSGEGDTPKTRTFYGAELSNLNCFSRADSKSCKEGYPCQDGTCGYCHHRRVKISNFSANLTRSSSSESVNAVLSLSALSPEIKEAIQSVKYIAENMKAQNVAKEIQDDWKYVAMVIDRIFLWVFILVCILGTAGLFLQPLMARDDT
# UniProt P04757, whole entry, looked up: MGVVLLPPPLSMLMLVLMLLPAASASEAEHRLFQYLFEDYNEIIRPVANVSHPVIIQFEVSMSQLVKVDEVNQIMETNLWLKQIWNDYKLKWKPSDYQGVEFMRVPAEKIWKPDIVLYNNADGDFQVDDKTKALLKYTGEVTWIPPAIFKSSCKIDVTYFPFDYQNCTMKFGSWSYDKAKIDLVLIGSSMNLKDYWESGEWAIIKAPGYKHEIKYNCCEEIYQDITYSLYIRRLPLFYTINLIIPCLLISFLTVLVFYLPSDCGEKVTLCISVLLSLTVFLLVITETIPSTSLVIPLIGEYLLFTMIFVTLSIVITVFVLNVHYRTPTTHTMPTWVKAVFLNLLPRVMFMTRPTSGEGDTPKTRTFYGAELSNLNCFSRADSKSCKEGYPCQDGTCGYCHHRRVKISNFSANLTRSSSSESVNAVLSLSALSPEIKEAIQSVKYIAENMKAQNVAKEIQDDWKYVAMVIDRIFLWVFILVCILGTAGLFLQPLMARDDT
# UniProt P12392, 21-495 limits assumed: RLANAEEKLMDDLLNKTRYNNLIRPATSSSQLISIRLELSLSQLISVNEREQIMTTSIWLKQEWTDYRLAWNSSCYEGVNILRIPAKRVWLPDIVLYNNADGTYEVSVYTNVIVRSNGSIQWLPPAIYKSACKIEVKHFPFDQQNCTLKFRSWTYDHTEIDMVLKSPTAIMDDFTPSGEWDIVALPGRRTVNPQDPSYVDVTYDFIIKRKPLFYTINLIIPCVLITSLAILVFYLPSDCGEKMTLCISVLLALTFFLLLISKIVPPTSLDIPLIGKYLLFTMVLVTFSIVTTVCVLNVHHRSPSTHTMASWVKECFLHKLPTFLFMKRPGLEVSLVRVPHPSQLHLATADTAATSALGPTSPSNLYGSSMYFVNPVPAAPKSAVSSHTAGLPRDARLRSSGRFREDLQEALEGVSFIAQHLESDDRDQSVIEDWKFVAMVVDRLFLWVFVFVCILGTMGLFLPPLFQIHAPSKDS
# UniProt P12392, whole entry, looked up: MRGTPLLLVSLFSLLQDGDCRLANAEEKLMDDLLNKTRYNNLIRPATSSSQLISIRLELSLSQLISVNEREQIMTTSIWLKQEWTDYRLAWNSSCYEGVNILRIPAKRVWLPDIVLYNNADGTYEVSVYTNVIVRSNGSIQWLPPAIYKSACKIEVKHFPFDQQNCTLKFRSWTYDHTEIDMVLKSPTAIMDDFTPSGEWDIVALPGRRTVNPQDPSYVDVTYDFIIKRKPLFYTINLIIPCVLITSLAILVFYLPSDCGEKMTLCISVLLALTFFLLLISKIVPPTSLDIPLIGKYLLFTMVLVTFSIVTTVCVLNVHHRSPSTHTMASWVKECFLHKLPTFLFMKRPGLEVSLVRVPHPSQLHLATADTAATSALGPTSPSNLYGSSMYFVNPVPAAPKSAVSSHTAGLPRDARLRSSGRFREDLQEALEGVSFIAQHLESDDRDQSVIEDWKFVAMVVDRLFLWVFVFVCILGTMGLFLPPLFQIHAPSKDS
# UniProt P43143, whole entry M241L/F253L/V303I/V320I/I327V/A333T/K339T, looked up: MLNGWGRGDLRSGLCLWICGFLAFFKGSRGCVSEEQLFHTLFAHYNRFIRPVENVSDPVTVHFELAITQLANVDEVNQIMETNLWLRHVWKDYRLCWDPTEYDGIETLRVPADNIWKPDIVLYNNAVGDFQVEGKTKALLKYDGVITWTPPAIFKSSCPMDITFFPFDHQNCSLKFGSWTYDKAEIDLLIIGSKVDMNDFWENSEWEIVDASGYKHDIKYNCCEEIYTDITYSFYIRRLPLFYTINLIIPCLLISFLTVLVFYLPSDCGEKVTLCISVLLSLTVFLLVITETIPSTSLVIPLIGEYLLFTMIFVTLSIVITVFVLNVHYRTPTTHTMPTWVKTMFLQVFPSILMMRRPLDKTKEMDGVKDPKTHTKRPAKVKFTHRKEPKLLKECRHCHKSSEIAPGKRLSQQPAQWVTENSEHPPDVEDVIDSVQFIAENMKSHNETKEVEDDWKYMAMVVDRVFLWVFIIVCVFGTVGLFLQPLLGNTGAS
# UniProt Q05941, 23-502 limits assumed: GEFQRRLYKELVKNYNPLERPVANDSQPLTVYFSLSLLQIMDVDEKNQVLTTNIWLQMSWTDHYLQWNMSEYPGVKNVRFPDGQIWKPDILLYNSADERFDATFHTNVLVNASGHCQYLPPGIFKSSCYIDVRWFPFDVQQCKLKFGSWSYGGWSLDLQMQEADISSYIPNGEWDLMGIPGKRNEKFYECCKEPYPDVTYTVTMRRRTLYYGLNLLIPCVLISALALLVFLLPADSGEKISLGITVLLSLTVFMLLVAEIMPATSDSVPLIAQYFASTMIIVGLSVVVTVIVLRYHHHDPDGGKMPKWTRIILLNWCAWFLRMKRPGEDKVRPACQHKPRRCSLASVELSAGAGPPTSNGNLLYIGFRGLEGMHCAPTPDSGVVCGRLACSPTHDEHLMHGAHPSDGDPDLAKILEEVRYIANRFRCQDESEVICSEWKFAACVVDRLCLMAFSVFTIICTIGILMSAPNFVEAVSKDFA
# UniProt P12390, 25-500 limits assumed: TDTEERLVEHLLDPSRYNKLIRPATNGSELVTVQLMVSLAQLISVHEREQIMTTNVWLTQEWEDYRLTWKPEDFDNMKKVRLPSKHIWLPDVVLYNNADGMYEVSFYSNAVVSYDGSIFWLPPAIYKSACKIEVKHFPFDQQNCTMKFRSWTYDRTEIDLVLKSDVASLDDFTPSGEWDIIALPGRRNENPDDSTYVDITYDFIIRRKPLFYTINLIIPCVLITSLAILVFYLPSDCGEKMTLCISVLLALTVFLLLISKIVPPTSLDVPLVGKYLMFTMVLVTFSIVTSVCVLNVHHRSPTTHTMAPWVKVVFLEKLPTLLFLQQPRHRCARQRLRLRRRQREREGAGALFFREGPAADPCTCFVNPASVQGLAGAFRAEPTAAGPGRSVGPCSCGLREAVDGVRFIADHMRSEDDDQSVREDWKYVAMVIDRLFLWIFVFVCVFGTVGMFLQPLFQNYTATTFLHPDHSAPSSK
# UniProt P12390, whole entry, looked up: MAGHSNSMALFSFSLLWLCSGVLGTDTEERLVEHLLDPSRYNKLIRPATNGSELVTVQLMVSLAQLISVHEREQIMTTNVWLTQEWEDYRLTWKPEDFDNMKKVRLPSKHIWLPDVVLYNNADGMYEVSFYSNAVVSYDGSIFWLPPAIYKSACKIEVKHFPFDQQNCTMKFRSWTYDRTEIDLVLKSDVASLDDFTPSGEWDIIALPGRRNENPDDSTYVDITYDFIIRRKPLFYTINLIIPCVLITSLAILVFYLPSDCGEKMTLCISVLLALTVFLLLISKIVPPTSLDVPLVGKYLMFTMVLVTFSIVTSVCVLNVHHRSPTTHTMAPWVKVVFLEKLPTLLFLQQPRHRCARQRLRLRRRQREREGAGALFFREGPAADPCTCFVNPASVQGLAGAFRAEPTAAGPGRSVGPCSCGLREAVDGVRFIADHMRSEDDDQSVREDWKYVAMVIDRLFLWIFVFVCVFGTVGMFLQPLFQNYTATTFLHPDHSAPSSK
# UniProt P12391, whole entry, looked up: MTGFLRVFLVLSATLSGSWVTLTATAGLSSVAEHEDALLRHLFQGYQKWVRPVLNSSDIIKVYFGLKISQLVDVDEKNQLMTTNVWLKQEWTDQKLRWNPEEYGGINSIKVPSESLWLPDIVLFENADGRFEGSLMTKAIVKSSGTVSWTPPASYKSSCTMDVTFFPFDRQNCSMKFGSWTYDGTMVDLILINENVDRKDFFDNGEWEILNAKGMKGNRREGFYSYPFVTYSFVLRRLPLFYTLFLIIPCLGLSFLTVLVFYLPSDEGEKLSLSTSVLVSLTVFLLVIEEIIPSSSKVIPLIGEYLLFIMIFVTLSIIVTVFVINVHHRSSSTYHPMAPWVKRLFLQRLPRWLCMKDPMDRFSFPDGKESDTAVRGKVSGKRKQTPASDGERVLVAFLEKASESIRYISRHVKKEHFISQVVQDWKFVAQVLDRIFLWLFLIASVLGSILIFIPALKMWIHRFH
# UniProt P09483, 31-630 limits assumed: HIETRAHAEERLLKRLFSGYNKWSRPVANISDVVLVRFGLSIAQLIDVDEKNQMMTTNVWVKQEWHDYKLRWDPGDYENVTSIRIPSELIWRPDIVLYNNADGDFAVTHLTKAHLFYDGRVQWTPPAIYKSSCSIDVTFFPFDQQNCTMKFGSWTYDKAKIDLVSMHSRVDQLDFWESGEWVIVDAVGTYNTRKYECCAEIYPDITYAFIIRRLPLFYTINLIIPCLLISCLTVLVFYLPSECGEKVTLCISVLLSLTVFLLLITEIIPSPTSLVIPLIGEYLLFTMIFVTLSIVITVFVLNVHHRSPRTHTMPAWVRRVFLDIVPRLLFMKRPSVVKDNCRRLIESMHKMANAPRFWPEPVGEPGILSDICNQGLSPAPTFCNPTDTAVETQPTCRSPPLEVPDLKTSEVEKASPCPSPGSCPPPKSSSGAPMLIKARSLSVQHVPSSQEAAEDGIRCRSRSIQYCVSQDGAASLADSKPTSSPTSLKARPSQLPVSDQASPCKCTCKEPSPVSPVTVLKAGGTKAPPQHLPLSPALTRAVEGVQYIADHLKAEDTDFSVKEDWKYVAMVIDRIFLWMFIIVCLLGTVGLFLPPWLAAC
# UniProt P12389, 28-511 limits assumed: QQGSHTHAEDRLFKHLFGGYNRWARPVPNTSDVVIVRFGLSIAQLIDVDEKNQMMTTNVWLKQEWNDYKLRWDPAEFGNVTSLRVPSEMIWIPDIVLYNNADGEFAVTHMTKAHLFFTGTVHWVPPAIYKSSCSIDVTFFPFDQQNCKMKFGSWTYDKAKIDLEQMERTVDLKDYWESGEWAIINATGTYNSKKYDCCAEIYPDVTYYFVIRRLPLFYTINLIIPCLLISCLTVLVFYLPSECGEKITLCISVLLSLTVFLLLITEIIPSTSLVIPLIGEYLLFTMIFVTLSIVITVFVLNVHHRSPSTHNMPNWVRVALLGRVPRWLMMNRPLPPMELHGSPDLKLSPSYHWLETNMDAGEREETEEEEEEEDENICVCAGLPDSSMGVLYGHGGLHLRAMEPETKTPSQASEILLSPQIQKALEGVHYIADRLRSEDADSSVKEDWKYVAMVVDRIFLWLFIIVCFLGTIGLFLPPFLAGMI
# Legend:
# Experiment in all cases: two-electrode voltage clamp, inhibition of ACh responses in Xenopus oocytes
# [1] = target: muscle-type nAChR α1β1γδ (αβγδ) (Rattus norvegicus, UniProt P18916+P25108+P25109+P25110)
# α6/α3β4 nAChR = α6/α3β4 nAChR (Rattus norvegicus, UniProt P04757+P12392+P43143); assay type: cell-based; details: rat α6/α3β4 (α6/α3 chimera) in Xenopus laevis oocytes; TEVC −70 mV; 100 μM ACh 2-s pulses; 3-min preincubation; ND96 pH 7.4; mean of at least three to four measurements, oocytes from at least two frogs; Hill fit
# α7 nAChR = α7 nAChR (Rattus norvegicus, UniProt Q05941); assay type: cell-based; details: rat α7 in Xenopus laevis oocytes; TEVC −70 mV; 100 μM ACh 2-s pulses; 3-min preincubation; ND96 pH 7.4; mean of at least three to four measurements, oocytes from at least two frogs; Hill fit
# α3β2 nAChR = α3β2 nAChR (Rattus norvegicus, UniProt P04757+P12390); assay type: cell-based; details: rat α3β2 in Xenopus laevis oocytes; TEVC −70 mV; 100 μM ACh 2-s pulses; 3-min preincubation; ND96 pH 7.4; mean of at least three to four measurements, oocytes from at least two frogs; Hill fit
# α6/α3β2β3 nAChR = α6/α3β2β3 nAChR (Rattus norvegicus, UniProt P04757+P12390+P12391+P43143); assay type: cell-based; details: rat α6/α3β2β3 (α6/α3 chimera) in Xenopus laevis oocytes; TEVC −70 mV; 100 μM ACh 2-s pulses; 3-min preincubation; ND96 pH 7.4; mean of at least three to four measurements, oocytes from at least two frogs; Hill fit
# α4β2 nAChR = α4β2 nAChR (Rattus norvegicus, UniProt P09483+P12390); assay type: cell-based; details: rat α4β2 in Xenopus laevis oocytes; TEVC −70 mV; 100 μM ACh 2-s pulses; 3-min preincubation; ND96 pH 7.4; mean of at least three to four measurements, oocytes from at least two frogs; Hill fit
# α4β4 nAChR = α4β4 nAChR (Rattus norvegicus, UniProt P09483+P12392); assay type: cell-based; details: rat α4β4 in Xenopus laevis oocytes; TEVC −70 mV; 100 μM ACh 2-s pulses; 3-min preincubation; ND96 pH 7.4; mean of at least three to four measurements, oocytes from at least two frogs; Hill fit
# α2β2 nAChR = α2β2 nAChR (Rattus norvegicus, UniProt P12389+P12390); assay type: cell-based; details: rat α2β2 in Xenopus laevis oocytes; TEVC −70 mV; 100 μM ACh 2-s pulses; 3-min preincubation; ND96 pH 7.4; mean of at least three to four measurements, oocytes from at least two frogs; Hill fit
# α3β4 nAChR = α3β4 nAChR (Rattus norvegicus, UniProt P04757+P12392); assay type: cell-based; details: rat α3β4 in Xenopus laevis oocytes; TEVC −70 mV; 100 μM ACh 2-s pulses; 3-min preincubation; ND96 pH 7.4; mean of at least three to four measurements, oocytes from at least two frogs; Hill fit
structure (smiles),measurement,setting,value
C[C@@H]1NC(=O)[C@@H]2CCCN2C(=O)[C@H](Cc2c[nH]cn2)NC(=O)[C@@H]2CSSC[C@@H](C(N)=O)NC(=O)[C@H](CC(N)=O)NC(=O)[C@H](Cc3ccc(O)cc3)NC(=O)[C@H](CCCCN)NC(=O)[C@H](CCCNC(=N)N)NC(=O)CNC(=O)[C@H](CSSC[C@H](NC(=O)[C@H](CCCNC(=N)N)NC(=O)CN)C(=O)N2)NC1=O [GaIA],IC50,"[1]; rat muscle α1β1γδ in Xenopus laevis oocytes, TEVC −70 mV, 100 μM ACh 2-s pulses, 3-min preincubation, ND96 pH 7.4, mean of at least three to four measurements, oocytes from at least two frogs, Hill fit",0.0384 µM
same,Hill Slope,"[1]; rat αβγδ, four-parameter logistic fit, plateaus constrained to 100% and 0%",−1.23
same,IC50,α6/α3β4 nAChR,18.2 µM
same,IC50,α7 nAChR,5.16 µM
same,IC50,α3β2 nAChR,0.989 µM
same,IC50,α6/α3β2β3 nAChR,1.17 µM
same,IC50,α4β2 nAChR,3.93 µM
same,IC50,α4β4 nAChR,49.4 µM
same,IC50,α2β2 nAChR,6.47 µM
same,IC50,α3β4 nAChR,7.91 µM
